PubChem BioAssay AID504761, Drosophila RNAi Screening Center | 2011

- Aim: 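Genome-wide fly cell screen for genes dengue virus requires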 (primary screen)
- Cell system: D.Mel-2 cells from Drosophila
- Reagents: long dsRNA against Drosophila genes
- Challenge: infection with dengue virus type 2; dose and infection time not stated
- Detection: 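Cells stained for dengue envelope protein and imaged; percent of infected cells per well on duplicate plates, ranked by infection, with stained nuclei counted for cell number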
- Direction: infection score: higher = more virus-infected cells; cell count: higher = more cells in the well
- Active means: 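Low infection ranks in the two replicates (chance level up to 0.065) followed by a retest with a 1.5-fold or larger significant decrease, p below 0.05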
- Meaning of the calls: active = confirmed: knock-down lowers infection; inactive = not picked or not confirmed
The screen tested about 22,000 reagents; this is an unselected part of those that have a named target and a result. Of all reagents, 116 (0.52%) are marked active. 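Calls depend on retest data that are not deposited; infection was ranked per plate without normalising between plates; the unit of the infection score is not given.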 Raw values are not corrected between plates. Unmarked entries are inactive. A plus sign joins genes that one reagent is predicted to hit. Not given: the amount of reagent, the time to read-out.

target	amplicon	infection score, replicate 1	infection score, replicate 2	cell count, replicate 1	cell count, replicate 2
CG34367	DRSC02238	11.4	8.47	6460	6148
CG34367	DRSC02850	2.45	2.94	6404	6772
CG34367	DRSC28054	9.75	21.1	5978	5587
CG32248	DRSC08102	0.75	0.34	6358	6455
CG32248	DRSC25738	3.7	2.48	6438	5957
CG4815	DRSC15653	4.19	16.2	5875	4996
SLC22A (SLC22A family member)	DRSC11826	6.55	8.96	6461	6359
SLC22A (SLC22A family member)	DRSC11827	2.65	7.4	6753	6445
Blm + CG14721	DRSC14943	9.91	21.1	6369	4698
Dop1R2 (Dopamine 1-like receptor 2)	DRSC13958	3.5	2.43	5771	5316
Dop1R2 (Dopamine 1-like receptor 2)	DRSC15379		2.03	337	787
Dop1R2 (Dopamine 1-like receptor 2)	DRSC28272	12.2	1.5	6251	466
l(2)k10201 (lethal (2) k10201)	DRSC06439	14.6	2.33	5944	6947
l(2)k10201 (lethal (2) k10201)	DRSC07640	18.6	6.77	5906	6693
Ndg (Nidogen)	DRSC06223	7.69	9.2	6566	6576
Ndg (Nidogen)	DRSC28402	2.73	13.5	842	1505
Dgp-1	DRSC07400	16.5	7.41	5709	6408
Ugt302K1 (UDP-glycosyltransferase family 302 member K1)	DRSC16086	7.1	8.49	6351	6539
CG9570	DRSC20687	1.94	1.17	6123	6247
DnaJ-1 (DnaJ-like-1)	DRSC11145	2.28 (active)	1.05	6364	6746
CecC (Cecropin C)	DRSC16606	3.79	1.57	3115	6618
Jon66Cii (Jonah 66Cii)	DRSC10778	4.05	1.6	6127	5803
Jon66Cii (Jonah 66Cii)	DRSC28611	4.7		937	296
CG1850	DRSC06762	5.34	16.7	6776	3835
CG8840	DRSC00713	24.5	41	5694	5590
RpL36 (Ribosomal protein L36)	DRSC18708	1.14	2.21	1137	770
CG10859	DRSC02110	16.3	12.2	6655	5745
CBP (sarcoplasmic calcium-binding protein)	DRSC17746	3.16	9.53	6288	6304
Tsp42Ej (Tetraspanin 42Ej)	DRSC06113	14.8	31.1	6850	5666
Tsp42Ej (Tetraspanin 42Ej)	DRSC28269	21.8	6.47	4460	6567
ScsbetaG (Succinyl-coenzyme A synthetase beta subunit, GDP-forming)	DRSC11294	3.46	4.01	5751	5456
ScsbetaG (Succinyl-coenzyme A synthetase beta subunit, GDP-forming)	DRSC26044	2.6	0.61	6317	5910
Hip1 (Huntingtin interacting protein 1)	DRSC09812	9.28	1.48	6551	6000
Lgr1 (Leucine-rich repeat-containing G protein-coupled receptor 1)	DRSC16675	5.28	8.01	5763	5518
CG7099	DRSC03006	21	37.9	3216	5080
CG7099	DRSC27321	7.3	6.75	6148	5574
Grip163	DRSC10538	2.11	2.58	6434	6406
Grip163	DRSC26469	2.37	7.22	6086	5800
pirk (poor Imd response upon knock-in)	DRSC04269	11.9	9.67	6259	6642

Records listed so far with an active call:
target	amplicon	infection score, replicate 1	infection score, replicate 2	cell count, replicate 1	cell count, replicate 2
DnaJ-1 (DnaJ-like-1)	DRSC11145	2.28 (active)	1.05	6364	6746
